Reference: US20260014232A1 (Jiangsu Hengrui Pharmaceuticals Co., Ltd., priority 2021, published 2026)

Experiments:
[1] = general procedure: Fmoc solid-phase peptide synthesis; Rink-amide MBHA; HCTU / 4-methylmorpholine; settings: whole synthesis, scale 0.1 mmol
[2] = general procedure: Fmoc solid-phase peptide synthesis; Rink-amide MBHA resin (0.48 mMole/g); HCTU / 4-methylmorpholine; settings: whole synthesis
[3] = analytical HPLC combined with UHPLC/MS

For “H-YAibEGTFTSDYSIYK (OEG-OEG-γGlu-C20-OH) EKIAAQEFVNWLLAGGPSSGAPPPS-NH2”, the isolated yield [1] was 18% and the “final HPLC purity” value ([2]; analytical HPLC and UPLC/MS) was 92.81%.

In the case of “H-YAibEGTFTSDYSIYLEK(OEG-OEG-γGlu-C20-OH)IAAQEFINWLIAGGPSSGAPPPS-NH2”, the “final HPLC purity” value [2, 3] is reported as 94.56%.

For “H-YAibEGTFTSDYSIYLEK(OEG-OEG-γGlu-C20-OH)IAAQEFINWLLAGGPSSGAPPPS-NH2”, the “final HPLC purity” value [2, 3] was 92.18%.

For “H-YAibEGTFTSDYSIYLEK(OEG-OEG-γGlu-C20-OH)IAAQEFVNWLIAGGPSSGAPPPS-NH2”, the “final HPLC purity” value [2, 3] was 93.28%.

With “H-YAibEGTFTSDYSIYLEK(OEG-OEG-γGlu-C20-OH)IAAQEFVNWLLAGGPSSGAPPPS-NH2” the “final HPLC purity” value [2, 3] was 96.30%.
